Experimental findings from patent US20080057492A1, “Interacting site for gp41 on gp120 of hiv-1” (priority 2002, published 2008) are described below.

The assay has as its target MN-P envelope glycoprotein (neutralization resistant primary clone of the HIV-1 MN strain) (HIV-1 MN strain) (UniProt P05877). Nature of the assay: cell-based or functional assay.

Turning to “soluble CD4 (from UniProt P01730 26-396) (receptor)”, the neutralization by sCD4 is over 1 µg/mL, the resistance to sCD4 neutralization relative to MN-TCLA was over 50 fold and the sCD4-induced release of gp120 from virions was over 3 fold.
